# Reference: paper PMC13347698 (Analytical Chemistry, 2026)
# Biological target: wild-type 3CL^pro (Severe acute respiratory syndrome coronavirus 2, UniProt P0DTD1)
# Format: binding, SARS-CoV-2
compound,measurement,value
CC(C)(C)c1ccc(N(C(=O)c2c[nH]cn2)[C@@H](C(=O)NC2CCCCC2)c2cccnc2)cc1 [X77],ΔG,-7.6 kcal mol -1
